Values joined by “and” are separate entries in the source; they are usually repeats but may differ in a detail not shown here. Equal entries are not always repeated.
Key:
[1] = tested on: HCV-RNA replication in 1B-4RL cells (HCV-1B-4 strain, Li23-derived); assay type: cell-based, HCV genotype 1b; settings: 1B-4RL vs ORL8
Description: For N-251, the results at concentrations of up to 1.3 μM are shown.

[2] = tested on: HCV-RNA replication in ORL8 cells; assay: Effect of antioxidant vitamin E on anti-HCV activity in ORL8 cells (luciferase activity); assay type: cell-based, HCV genotype 1b; settings: vitamin E 10 μM, N-89, N-251 0.5 μM, artemisinin 100 μM, CsA 0.4 μg/mL, IFN-α 1 IU/mL
Description: The effect of addition of vitamin E on the anti-HCV activity of N-89 was examined using ORL8 cells. An experimental scale and schedule are the same as those in Example 1.
N-89 and vitamin E were simultaneously added so that the concentrations of N-89 and vitamin E were set to 0.5 μM and 10 μM, respectively. The luciferase activity was measured 72 hours after the culture.
The effect of addition of vitamin E on the anti-HCV activity of N-251 was examined using ORL8 cells. An experimental scale and schedule are the same as those in Example 1.
N-251 and vitamin E were simultaneously added so that the concentrations of N-251 and vitamin E were set to 0.5 μM and 10 μM, respectively. The luciferase activity was measured 72 hours after the culture.
The effect of addition of vitamin E on the anti-HCV activity of artemisinin was examined using ORL8 cells. An experimental scale and schedule are the same as those in Example 1.
Artemisinin and vitamin E were simultaneously added so that the concentrations of artemisinin and vitamin E were set to 100 μM and 10 μM, respectively. The luciferase activity was measured 72 hours after the culture.

Compound	EC50 fold higher in 1B-4RL cells than in ORL8 cells [1]	luciferase activity with vitamin E divided by luciferase activity without vitamin E [2]
C1CCCCCC2(CCCCC1)OOCCCOO2 [N-89, 1,2,6,7-tetraoxaspiro[7,11]nonadecane]	about 1.3 fold	8.9
OCCCCCCC1COOC2(CCCCCCCCCCC2)OOC1 [N-251, 6-(1,2,6,7-tetraoxaspiro[7,11]nonadec-4-yl)]	~2.3 fold	6.6
C[C@@H]1CC[C@H]2[C@@H](C)C(=O)O[C@@H]3O[C@@]4(C)CC[C@@H]1[C@]32OO4 [artemisinin, reference compound]		2.3
IFN-α		4.4
vitamin E [reference compound]		2.2 and 1.9 and 2.9

Source: patent publication US9289411B2, “Anti-HCV agent” (NATIONAL UNIVERSITY CORPORATION OKAYAMA UNIVERSITY, priority 2011, dated 2016)
